Biological target: cholera toxin B subunit (CTB), Vibrio cholerae

IsdB-CTA2 peptide of the IsdB-CTA2/B chimera
result: binds

From patent US20190328860
